Assay results: US4740501A (priority 1985, dated 1988)

Test system: MMTV
Assay: MMTV production by MJY-alpha cells (radiolabel in purified virus)
Format: cell-based, mouse
Conditions: 15 uM for 48 hours, washed; labeled day 5, 24 hours

CCOC(=O)[C@H](CCSC)NC(=O)[C@H](Cc1cccc(N(CCCl)CCCl)c1)NC(=O)[C@@H](N)Cc1ccc(F)cc1.Cl [PTT.119, 3-(p-fluorophenyl)-L-alanyl-3-[m-bis(2-chloroethyl)aminophenyl]-L-alanyl-L-methionine ethyl ester hydrochloride]
MMTV production, % of control: 50-55%
